The series has as its system CCCC(C)(CCO)SC[C@H](N)C(=O)NCC(=O)O. Briefly: purified protein. The settings on record: Mn2+-bound enzyme; 0.1 M Tris-HCl (pH 80 [sic]); coupled with ShPatB.

On to ShPepV (Staphylococcus hominis; D437A), for which the Km came out at 370 ± 30 µM, the kcat is 5.79 s⁻¹ and the kcat/Km was determined as 15700 M⁻¹ s⁻¹.

Take ShPepV (Staphylococcus hominis; M271R): the Km is 2310 ± 80 µM, the kcat was 2.96 s⁻¹ and the kcat/Km was 1280 M⁻¹ s⁻¹.

For the substance ShPepV (Staphylococcus hominis; I413W), the Km amounted to 7790 ± 670 µM, the kcat stood at 3.01 s⁻¹ and the kcat/Km is 390 M⁻¹ s⁻¹.

For the substance ShPepV (Staphylococcus hominis; M439A), the Km came out at 700 ± 10 µM, the kcat is 4.71 s⁻¹ and the kcat/Km is 6770 M⁻¹ s⁻¹.

In the case of ShPepV (Staphylococcus hominis; E175A), the Km is 850 ± 110 µM, the kcat worked out at 4.73 s⁻¹ and the kcat/Km turned out to be 5590 M⁻¹ s⁻¹.

In the case of ShPepV (Staphylococcus hominis; A174V), the Km came out at 1580 ± 140 µM, the kcat was 2.3 s⁻¹ and the kcat/Km turned out to be 1460 M⁻¹ s⁻¹.

As a reminder, the Km is the substrate concentration at which the rate is half of its maximum. The term kcat denotes the maximal rate divided by the concentration of active sites. One may read the kcat/Km as the second-order rate constant that governs catalysis at low substrate concentration.

(Values after publication PMC11742315, “Identification of a staphylococcal dipeptidase involved in the production of human body odor” (The Journal of Biological Chemistry, 2024).)
